test system: P. falciparum 3D7; assay: SYBR Green I growth inhibition assay, blood stage; format: cell-based; settings: -log (IC50)/number of heavy atoms
Description: P. falciparum blood stage culturing. P. falciparum 3D7 and FCR3 cultures were maintained using modified, previously published methods at 37° C., 2% hematocrit of human red blood cells (Science 1976, 193, 673-675). Complete culture media consisted of sterile RPMI 1640 media (Life Technologies), supplemented with 10% human serum, 0.005% hypoxanthine, and buffered with final concentrations of 0.6% HEPES and 0.26% NaHCO3. The FCR3 strain was maintained at 3% CO2 and 5% O2, 92% N2 atmosphere, while the 3D7 strain was maintained at 5% CO2, 5% O2, 90% N2 atmosphere.
SYBR Green I growth inhibition assay. 10 μL of 10× compound diluted in RPMI 1640 media (Gibco) with a constant concentration of 1% DMSO was added to a 96 well plate (Costar), 90 μL of 1.5% ring stage, synchronized with 5% w/v sorbitol P. falciparum 3D7 parasites, 1% hematocrit, in culture media with 10% v/v human serum with 10 μg/mL gentamycin. Each compound concentration and 1% v/v DMSO controls were run in triplicate. Plates were incubated at 37° C. in 5% O2, 5% CO2 and 90% N2 for 72 hours. Plates were frozen, thawed, and incubated with 100-μL 2× SYBR green in lysis buffer (20 mM Tris pH 7.5, 5 mM EDTA, 0.008% Saponin, 0.08% TritonX-100) in the dark for at least one hour. Fluorescence was measured with a plate reader (HTS 7000, Perkin Elmer) at excitation/emission wavelengths of 485/535 nm.
Plasmodium parasite growth inhibition assay. P. falciparum 3D7 parasites were cultured as previously described (J Med Chem 57:4521-4531(2014)). Briefly, the parasites were cultured in 10% v/v human serum with 10 μg/mL gentamycin and synchronized with 5% w/v sorbitol. 1.5% ring stage parasites were added to 96 well plates (Costar) containing serial dilutions, performed in triplicate, of compound in RPMI 1640 media (Gibco). Plates were incubated at 37° C. in 5% O2, 5% CO2, and 90% N2 for 72 h. Plates were frozen, thawed, and incubated with 100 μL 2× SYBR green in lysis buffer (20 mM Tris pH 7.5, 5 mM EDTA, 0.008% Saponin, 0.08% TritonX-100) in the dark for 1 h. Fluorescence was measured with a plate reader (HTS 7000, PerkinElmer) at excitation/emission wavelengths of 485/535 nm.

| SMILES | LEAN (Blood stage) |
| --- | --- |
| CSc1ccccc1C(=O)Nc1nc(-c2ccccn2)cs1 [Compound 2, 2-methylsulfanyl-N-(4-pyridin-2-yl-1,3-thiazol-2-yl)benzamide] | 0.30 |
| O=C(Nc1nc(-c2ccccn2)cs1)c1ccccc1Br [Compound 3, 2-bromo-N-(4-pyridin-2-yl-1,3-thiazol-2-yl)benzamide] | 0.35 |
| O=C(CCCC[C@H]1SC[C@H]2NC(=O)N[C@H]21)NCCCCCC(=O)NNCc1ccc(C(=O)Nc2nc(-c3ccccn3)cs2)cc1 [Compound 8, 4-[[2-[6-[5-[(3aR,4R,6aS)-2-Oxo-1,3,3a,4,6,6a-hexahydrothieno[3,4-d]imidazol-4-yl]pentanoylamino]hexanoyl]hydrazinyl]methyl]-N-(4-pyridin-2-yl-1,3-thiazol-2-yl)benzamide] | 0.23 |
| Cc1ccc(Nc2nc(-c3ccccn3)cs2)cc1 [Compound 1, N-(4-methylphenyl)-4-pyridin-2-yl-1,3-thiazol-2-amine] | 0.31 |

— patent US20170044150A1, “IDENTIFICATION OF COMPOUNDS WHICH INHIBIT ATG8-ATG3 PROTEIN-PROTEIN INTERACTION AND THEIR USE AS ANTIPARASITICAL AGENTS” (THE JOHNS HOPKINS UNIVERSITY, priority 2014, published 2017)
